From article PMC11003484 (Journal of Enzyme Inhibition and Medicinal Chemistry, 2023)
The structures given here were assigned with low confidence; some may be wrong.

Amino acid sequences for entries named in this document (tags omitted). Residues count along the entry.
UniProt P33424, 960-1204 limits assumed: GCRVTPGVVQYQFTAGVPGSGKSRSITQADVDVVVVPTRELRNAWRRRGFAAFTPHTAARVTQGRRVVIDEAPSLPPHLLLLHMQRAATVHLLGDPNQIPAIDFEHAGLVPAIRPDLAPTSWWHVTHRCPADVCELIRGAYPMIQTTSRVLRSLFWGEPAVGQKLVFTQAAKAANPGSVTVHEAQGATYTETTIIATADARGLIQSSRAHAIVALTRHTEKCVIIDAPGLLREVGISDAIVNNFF

Target: HEV helicase (Hepatitis E virus genotype 1, UniProt P33424)
Conditions: read-out: IC50 from NTPase inhibition assay of previously published compounds; Malachite green phosphatase assay; Supplementary Table 2; unit inferred

SMILES | IC50 [nM]
COc1ccc([N+](=O)[O-])cc1-n1c(C)cc(C=Nc2ccc(N3CCOCC3)cc2)c1C | 2190
Cc1ccccc1NC(=O)C(=O)NC(C)c1ccccc1 (centres unmarked) | 1860
